From patent publication US20090304746A1 come the findings set out here.

Broadly, the IC50 is the concentration that gives 50% inhibition.

The assay addresses HLA-A*0202 (human), P30375. The experiment in a line: competition with 125I-labeled probe for purified HLA, gel filtration. On the technique in general: Size exclusion chromatography separates by hydrodynamic size, large species first.

HLHQNIVDV (modifications not checked) [HCV NS1/E2 696 peptide 939.14] displayed an IC50 of 3.07 µM.
ALSTGLIHL (modifications not checked) [HCV NS1/E2 686 peptide 1013.12] displayed an IC50 of 7.17 µM.
